PubChem BioAssay AID624099 – ICCB-Longwood, 2012

- Screen: 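Knock-downs relieving repression by E2 of an HPV18 LCR luciferase reporter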 (primary screen)
- Cell system: human C33A cervical carcinoma cells (HPV-negative) stably expressing BPV1 E2 and an HPV18 LCR luciferase reporter
- Reagents: siRNA pool against human genes, 40 nM
- Timing: 72 h
- Measured: 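Per-well luciferase luminescence, z-scored on each plate against the plate mean and SD with control wells left out, then averaged across three replicate plates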
- Scale: mean z-score and z-score: higher = stronger reporter signal, weaker E2 silencing
- Rule for the call: 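Hit if mean z-score reaches 2 and two or more of three replicate z-scores also reach 2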
The deposit covers about 21,000 reagents; below is an unselected part. 497 of all reagents (2.4%) count as active. 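Higher z means weaker E2 silencing; only reporter increases were scored, and knock-downs that hurt cell survival may mask genuine repressor factors.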 Entries without a mark were called inactive. Reagents against one gene are numbered here.

Gene	reagent no.	mean z-score	z-score, replicate A	z-score, replicate B	z-score, replicate C
CYP4X1	1	0.07	0.02	-0.26	0.46
KANSL2	1	0.85	0.55	0.48	1.5
NPAS3	1	-0.28	-0.59	-0.37	0.13
CKAP2L	1	0.22	0.05	0.27	0.34
PHACTR4	1	-1.25	-1.32	-1.21	-1.21
PIAS2	1	0.62	0.69	0.47	0.7
ACP2	1	-0.22	0.17	-0.72	-0.1
LOC390338 (retired record)	1	0.16	0.2	0.14	0.14
TRIR	1	0.12	0.26	0.2	-0.1
LINC00701	1	-0.4	-0.22	-0.61	-0.38
COL26A1	1	-0.46	-0.59	-0.3	-0.48
NDUFC1	1	-0.58	-0.39	-0.7	-0.66
HOOK1	1	1.27	1.87	1.14	0.8
COA3	1	-0.54	-0.45	-0.55	-0.61
TCF4	1	-0.27	-0.83	-0.1	0.11
FN1	1	0.65	0.61	0.7	0.65
TOMM7	1	-1.26	-1.35	-1.29	-1.13
LXN	1	0.44	0.63	-0.02	0.69
IGSF9	1	1.17	1.9	0.84	0.78
CLEC4A	1	-0.03	-0.67	0.11	0.47
FOXN1	1	-1.23	-1.04	-1.47	-1.2
CCDC77	1	0.33	0.4	0.35	0.26
DAOA	1	-2.44	-2.17	-2.72	-2.43
DNAJC5	1	0.47	0.46	0.6	0.36
MAB21L2	1	-0.86	-0.68	-0.91	-0.99
TBC1D22B	1	0.09	0.08	0.27	-0.07
BEST3	1	-1.17	-1.01	-1.23	-1.27
BEST3	2	0.53	0.55	0.83	0.21
MAST4	1	1.57	1.37	1.74	1.59
MAST4	2	-2.3	-2.02	-2.3	-2.6
RABGGTA	1	-0.61	-0.17	-0.87	-0.79
CCNT2	1	3.98 (active)	3.79	4.29	3.87
UTP25	1	-1.66	-1.76	-1.69	-1.55
SCGN	1	-2.34	-2.34	-2.42	-2.26
WASL	1	-0.31	-0.27	-0.31	-0.36
KLRB1	1	-1.09	-1.37	-1.05	-0.85
RMDN3	1	0.94	0.69	0.82	1.32
ITFG2-AS1	1	0.51	0.66	0.32	0.54
CCT4	1	0.49	0.28	0.66	0.52
